US20120108501A1, “Protease Inhibitors” (priority 2009, published 2012)

What was measured:
HIV-1RF = test: Cytoprotection in CEM-SS cells infected with HIV-1RF (XTT); format: cell-based; conditions: Therapeutic Index = TC50/EC50, CEM-SS
Experimental: To evaluate whether the protease inhibitors described herein retain the ability to protect against HIV-1 infection, CEM-SS cells infected with the RF strain of HIV-1 were treated with test compounds for six days, and then cell viability was monitored using the tetrazolium dye XTT. Infection studies were performed and EC50 values were calculated as the protease inhibitor concentration leading to 50% reduction in cell death compared to virus-infected cells without protease inhibitor. TC50 values were calculated as the protease inhibitor concentration leading to 50% cell death in the absence of viral infection. A value for Therapeutic Index (TI) was calculated as TC50/EC50.

[1] = system: HT/92/599 clinical subtype B HIV-1; test: HIV-1 reverse transcriptase activity following infection in fresh human PBMCs; format: cell-based; conditions: Therapeutic Index = TC50/EC50, PBMC
Experimental: Fresh human peripheral blood mononuclear cells (PBMCs) obtained from a commercial source were purified following centrifugation using a Ficoll-Hypaque density gradient. Viable cells were induced to proliferate in the presence of PHA-P and recombinant human IL-2 for 72 hours. PBMCs pooled from three donors were cultured with test compounds in the presence of the HT/92/599 clinical subtype B HIV-1 for seven days, followed by measurement of reverse transcriptase activity in cell supernatants using a radioactive incorporation polymerization assay. […] Incorporation of TTP into DNA was monitored by spotting the reaction mixture onto a DEAE filter mat, followed by washes with 5% phosphate buffer, distilled water, and 70% ethanol, and subsequent drying of the mat. Radioactivity was measured using a Wallac 1450 Microbeta Trilux liquid scintillation counter using Opti-Fluor O. Test compound-associated toxicity was measured in PBMCs cultured for seven days in the absence of virus using XTT reagent. EC50 and EC90 values were calculated as the protease inhibitor concentration leading to 50% and 90% reduction in […], respectively, compared to virus-infected cells without protease inhibitor. TC50 values were calculated as the protease inhibitor concentration leading to 50% cell death in the absence of viral infection. A value for Therapeutic Index (TI) was calculated as TC50/EC50.

| SMILES | TI (HIV-1RF) | TI [1] |
| --- | --- | --- |
| CCCCCCCCCCCCCCCCOCC(COP(=O)(O)OC(CN(Cc1ccc(-c2ccccn2)cc1)NC(=O)C(NC(=O)OC)C(C)(C)C)C(Cc1ccccc1)NC(=O)C(NC(=O)OCCOCCOCCOC)C(C)(C)C)OC (centres unmarked) [mPEG3-Atazanavir-monophospholipid] | 40.8 | 45.05 |
| CCCCCCCCCCCCCCCCOCC(COP(=O)(O)OC(CN(Cc1ccc(-c2ccccn2)cc1)NC(=O)C(NC(=O)OC)C(C)(C)C)C(Cc1ccccc1)NC(=O)C(NC(=O)OCCOCCOCCOCCOCCOC)C(C)(C)C)OC (centres unmarked) [mPEG5-Atazanavir-monophospholipid] |  | 1.39 |
| CCCCCCCCCCCCCCCCOCC(COP(=O)(O)OC(CN(Cc1ccc(-c2ccccn2)cc1)NC(=O)C(NC(=O)OC)C(C)(C)C)C(Cc1ccccc1)NC(=O)C(NC(=O)OCCOCCOCCOCCOCCOCCOC)C(C)(C)C)OC (centres unmarked) [mPEG6-Atazanavir-monophospholipid, mPEG6-atazanavir monophospholipid] | 0.9 | 3.03 |
